Target: human M3 receptor (Homo sapiens, UniProt P20309)
Assay: Muscarinic Receptor Radioligand Binding Assay ([3H]4-DAMP)
Details: 0.2 nM [3H]4-DAMP; for M3 (antagonist) % Inhibition of Control Specific Binding: test conc. 10 nM, 120 min, 22° C.; for M3 (antagonist) % Inhibition of Control Specific Binding / IC50: human M3 receptor-expressing cell homogenates; for Ki: calculated using the Cheng-Prusoff equation, human M3

Sequences of proteins named here, by UniProt entry; tags and fusion partners are left off.
UniProt P20309, whole entry, looked up: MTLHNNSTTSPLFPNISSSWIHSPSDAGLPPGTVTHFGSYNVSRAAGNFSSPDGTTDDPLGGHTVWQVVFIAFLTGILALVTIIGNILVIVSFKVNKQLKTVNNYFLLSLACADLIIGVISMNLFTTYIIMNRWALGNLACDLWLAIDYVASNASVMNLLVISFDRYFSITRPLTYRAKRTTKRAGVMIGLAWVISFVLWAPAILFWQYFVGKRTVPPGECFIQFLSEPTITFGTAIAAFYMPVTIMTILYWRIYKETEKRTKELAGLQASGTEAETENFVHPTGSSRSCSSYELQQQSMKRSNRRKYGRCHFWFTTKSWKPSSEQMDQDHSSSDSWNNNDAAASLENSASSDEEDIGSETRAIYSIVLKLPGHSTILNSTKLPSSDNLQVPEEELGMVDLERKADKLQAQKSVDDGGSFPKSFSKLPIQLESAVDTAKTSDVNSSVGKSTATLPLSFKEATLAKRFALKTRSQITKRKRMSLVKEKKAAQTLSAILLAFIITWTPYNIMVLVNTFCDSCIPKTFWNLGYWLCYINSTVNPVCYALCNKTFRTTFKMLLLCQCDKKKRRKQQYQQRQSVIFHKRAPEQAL

C[N+]1(C)C2CC[C@H]1[C@H](OC(=O)[C@](O)(c1ccccc1)C1CCCC1)C2.[Br-]
M3 (antagonist) % Inhibition of Control Specific Binding: 100%

C[N+]1(C)C2CC[C@H]1[C@H](OC(=O)[C@@](O)(c1ccccc1)C1CCCC1)C2
IC50: 19 nM
Ki: 14 nM

C[N+]1(C)C2CC[C@@H]1[C@@H](OC(=O)[C@@](O)(c1ccccc1)C1CCCC1)C2.[Br-]
M3 (antagonist) % Inhibition of Control Specific Binding: 80%

C[N+]1(C)C2CC[C@@H]1[C@@H](OC(=O)[C@](O)(c1ccccc1)C1CCCC1)C2
IC50: 0.25 nM
Ki: 0.18 nM

C[N+]1(C)C2CC[C@@H]1[C@@H](OC(=O)[C@](O)(c1ccccc1)C1CCCC1)C2.[Br-]
M3 (antagonist) % Inhibition of Control Specific Binding: 98%

C[N+]1(C)C2CC[C@H]1[C@@H](OC(=O)[C@](O)(c1ccccc1)C1CCCC1)C2.[Br-]
M3 (antagonist) % Inhibition of Control Specific Binding: 100%

C[N+]1(C)C2CC[C@H]1[C@@H](OC(=O)[C@@](O)(c1ccccc1)C1CCCC1)C2.[Br-]
M3 (antagonist) % Inhibition of Control Specific Binding: 9%

C[N+]1(C)C2CC[C@H]1[C@@H](OC(=O)[C@](O)(c1ccccc1)C1CCCC1)C2
IC50: 0.3 nM
Ki: 0.22 nM

C[N+]1(C)C2CC[C@H]1[C@@H](OC(=O)[C@@](O)(c1ccccc1)C1CCCC1)C2
IC50: 36 nM
Ki: 26 nM

C[N+]1(C)C2CC[C@@H]1[C@H](OC(=O)[C@](O)(c1ccccc1)C1CCCC1)C2.[Br-]
M3 (antagonist) % Inhibition of Control Specific Binding: 99%

C[N+]1(C)C2CC[C@@H]1[C@H](OC(=O)[C@@](O)(c1ccccc1)C1CCCC1)C2.[Br-]
M3 (antagonist) % Inhibition of Control Specific Binding: 75%

C[N+]1(C)C2CC[C@H]1[C@H](OC(=O)[C@@](O)(c1ccccc1)C1CCCC1)C2.[Br-]
M3 (antagonist) % Inhibition of Control Specific Binding: 30%

C[N+]1(C)C2CC[C@H]1[C@H](OC(=O)[C@](O)(c1ccccc1)C1CCCC1)C2
IC50: 0.23 nM
Ki: 0.16 nM

C[N+]1(C)C2CC[C@@H]1[C@@H](OC(=O)[C@@](O)(c1ccccc1)C1CCCC1)C2
IC50: 2.1 nM
Ki: 1.5 nM

C[N+]1(C)C2CC[C@@H]1[C@H](OC(=O)[C@](O)(c1ccccc1)C1CCCC1)C2
IC50: 0.25 nM
Ki: 0.18 nM

C[N+]1(C)C2CC[C@@H]1[C@H](OC(=O)[C@@](O)(c1ccccc1)C1CCCC1)C2
IC50: 2.9 nM
Ki: 2.1 nM

— patent publication US9320731B2, “7-azoniabicyclo[2.2.1]heptane derivatives, methods of production, and pharmaceutical uses thereof” (dated 2016)
